Results on four molecules are retold here after patent publication US20120100142A1 (VANDERBILT UNIVERSITY, published 2012).

For experiment [1], the target named is HA of A/Mexico/4108/09 (2009 A (H1N1)) virus (influenza A/Mexico/4108/2009 (H1N1) …). In words: cell-based or functional assay.
For experiment [2], the target named is HA of influenza A/Swine/Iowa/15/30 (H1N1) virus (influenza A/Swine/Iowa/15/30 (H1N1) …). In words: cell-based or functional assay.

B1: mAb 4D20 (antibody, V domains shown)
VH: EVQLVESGPVLVKPTETLTVTCTVSGFSVDNDRMGVSWIRQPPGKALEWLAHIFSNDEKSYSTSLRSRLTISKDTSKRQVVLSMTDMDPVDTATYYCARAPSEYAAMDVWGQGTMVTVS
VL: SYVLTQPPSVSVAPGETATVTCGGNNIGSKSVHWYQQKPGQAPVVVIYYDGDRPSGIPERFSGSNSGDTATLTISRVEAGDEADYYCLVWDYTSVHYVFGTGTKVTVLG
Take B1: in experiment [1], the “HAI, specific activity of indicated mAb” value is above 5 µg/mL and the “Neut Ab, specific activity of indicated mAb” value (“Neut Ab, specific activity” below) is above 5 µg/mL. Also, the “Specific HAI activity” value in experiment [2] is 0.04 µg/mL.

B2: mAb 1I20 (antibody, V domains shown)
VH: EVQLVESGGGVVQPGGSLRLSCIASAFNLGIFGMHWVRQAPGKGLEWVAFIRYDGGKTFYADSVKGRFTISRDNSKNTLYLQMNSLRTEDTALYYCARDATADYYGPGSYPNWLDPWGQGTLVTVS
VL: DIRLTQSPATLSVSPGERATLSCRASHSVSRNLAWYQQKPGRAPRLLVYDTSSRATGIPARFSGSGSGTEFTLTISSLQSEDFAVYYCQQYNNWPRTFGQGTKVDIK
For B2, in experiment [1], the “HAI, specific activity of indicated mAb” value is above 5 µg/mL and the “Neut Ab, specific activity” value is above 5 µg/mL. Further, in experiment [2], the “Specific HAI activity” value was determined as 0.08 µg/mL.

B3: mAb 2B12 (antibody, V domains shown)
VH: EVQLQESGPGLVKPSQTLSLTCNVSGGSITGDYKWSWIRQPPGKGLEWIGHIHSTGTTYYNPSLRSRITISMDTSKNNLSLRLTSVTAADTAVYYCASHTLTSGHYPRDFDFWGQGTLVTVSS
VL: SYVLTQPPSVSGTPGQRVIISCSGYSSNIGSNTVNWYQQFPGTAPRLLIYANNQRPPGVPDRFSGSKSGTSASLAISGLQSDDESDYYCAAWDDSLNGHWVFGGGTKLTVLG
In the case of B3, in experiment [1], the “HAI, specific activity of indicated mAb” value stood at 0.8 µg/mL and the “Neut Ab, specific activity” value was 0.16 µg/mL. Moreover, in experiment [2], the “Specific HAI activity” value was 1.25 µg/mL.

B4: mAb 2D1 (antibody, V domains shown)
VH: EVQLVESGPALVKPTQTLTLTCSFSGFSLSTSGMSVSWIRQPPGKALEWLALIDWDDDTYYITYSSSLKTRLTISKDTSKSQVVLTMTNMDPVDTATYYCARTLRVSGDYVRDFDLWGRGTLVTVS
VL: QPVLTQPPSASGTPGQRVTISCSGSSSNIGSNTVSWYQQVPGTAPKLLIYGNNERPSGVPDRFSGSKSATSASLAISGLQSEDEADYYCAAWDDSLNGFWVFGGGTKLTVLG
For B4, the “HAI, specific activity of indicated mAb” value in experiment [1] is 0.1 µg/mL. Further, the “Specific HAI activity” value in experiment [2] is 0.08 µg/mL.
